Drawing on patent US20040197809A1, this text covers Kd for 1 substance.

The target in the experiment is gp120, the major envelope glycoprotein of HIV-I (HIV-1). Kind of experiment: saturation binding of 125I-gp120 in solution, immunoprecipitation with OKT4, Scatchard analysis.

pKd: −log10 of the molar value.

For orientation: pKd means −log10 of the Kd, conventionally taken in molar units. As to “detergent solubilized intact CD4 (from UniProt P01730 26-458) (receptor)”, the negative-log Kd (pKd) was 8.89.
